# Tested on: cytokeratin 8
# Experiment: Affinity chromatography of A549 lysate on P1-15, cytokeratin 8
# Type: binding, human
# Settings: biotinylated P1-15 on avidin agarose, native A549 cell lysate, 16 h at 4 °C, LC-MS/MS
# Method: The C-terminal sequence of P1 (P1-15) was synthesised with an N-terminal biotin tag by Chempeptide Limited (China). Affinity chromatography was performed similar to the section above. In brief, 1 mg of the peptide was added to Avidin Agarose beads for 16 h at 4 °C. The beads were washed four times (5 ml per wash) with PBS before being incubated with native A549 cell lysates (harvested in 1% w/v C7BzO in PBS) for 16 h at 4 °C. Non-binding proteins were washed from the column with four washes (5 ml per wash) of PBS and protein complexes with an affinity to the peptide were eluted from the column with 7 M urea, 2 M thiourea, 40 mM Tris-HCl, and 1% (w/v) C7BzO (4 times of 2 ml). Eluents were concentrated with a Macrosep® 3 kDa cutoff centrifugal device (Pall), precipitated with acetone, and separated by 1D-SDS PAGE. The whole lane was divided into sections, in-gel digested with trypsin, and analysed by LC-MS/MS as described above.
sequence,measurement,setting,value
"PGAPKPPVQPPKKPA [P1-15, C-terminal 15 amino acids of P1, synthesised chemically, N-terminal biotin tag]","Mascot score, cytokeratin 8 (first value)",first of two values (slice 1 and 2),2737
same,"Mascot score, cytokeratin 8 (second value)",second of two values (slice 1 and 2),1486

# Source: PMC7156367, “Cell surface processing of the P1 adhesin of Mycoplasma pneumoniae identifies novel domains that bind host molecules” (Scientific Reports, 2020)
